Fitness effects across NS2B and the NS3 protease domain of Zika virus

Source: Ni et al. 2025 (doi:10.1038/s41467-025-63602-z), supplementary data.

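Pools of virus carrying all single amino acid changes were selected for growth in Huh-7.5 cells. Sequencing of three replicate libraries (two for positions 207-308) was averaged into one effect per change. The study looked for pockets that tolerate few changes, as a guide for inhibitor design.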

Protein: NS2B and the protease part of NS3 of Zika virus strain MR766. Positions count along the chain below; NS2B spans 2-131 and NS3 starts at 132.
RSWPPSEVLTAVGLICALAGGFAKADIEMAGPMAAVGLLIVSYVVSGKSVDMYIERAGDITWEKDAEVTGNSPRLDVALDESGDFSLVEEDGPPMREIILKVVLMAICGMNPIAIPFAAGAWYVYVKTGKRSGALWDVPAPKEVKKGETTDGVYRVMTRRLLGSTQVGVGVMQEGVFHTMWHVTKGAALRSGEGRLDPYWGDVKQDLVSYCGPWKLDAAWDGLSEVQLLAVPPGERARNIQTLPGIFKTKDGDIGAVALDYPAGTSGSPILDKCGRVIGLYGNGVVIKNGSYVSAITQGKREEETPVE

The number is log2 of the effect relative to wild type; negative values mean reduced growth, higher values better tolerance. Substitutions are written as wild-type residue, site number, new residue. All changes here are to a stop codon. Stop codons (*) centre on -7 and mark the level of dead virus.

R1* gave -9.48. S2* gave -8.73. With W3* the assay gave -6.81. P4* gave -7.14. P5* gave -8.01.

With S6* the assay gave -7.57. With E7* the assay gave -4.53. V8* gave -6.61. With L9* the assay gave -6.41. T10* read -6.46.

A11* read -7.28. For V12* the result was -7.68. G13* gave -7.92. For L14* the result was -7.26. For I15* the result was -8.07.

With C16* the assay gave -8.03. With A17* the assay gave -7.41. L18* read -8.22. A19* gave -7.89. For G20* the result was -4.60.

With G21* the assay gave -7.82. F22* gave -7.69. A23* gave -6.70. For K24* the result was -7.63. For A25* the result was -7.51.

For D26* the result was -6.62. With I27* the assay gave -7.13. E28* read -4.01. For M29* the result was -7.79. For A30* the result was -7.38.

G31* read -4.77. P32* gave -6.89. M33* read -8.42. A34* read -6.72. A35* read -7.71.

With V36* the assay gave -7.89. G37* gave -7.92. L38* read -8.72. For L39* the result was -6.81. I40* read -7.45.

V41* read -7.33. S42* gave -7.55.

The opening 6 entries, copied out:

change,effect (log2)
R1*,-9.48
S2*,-8.73
W3*,-6.81
P4*,-7.14
P5*,-8.01
S6*,-7.57

Position 1 still belongs to NS2A. In the paper, -1 or higher counts as tolerated. Six mutants with high scores were retested singly and none clearly outgrew wild type, so positive values are not proof of better growth. The region was split into three libraries (1-103, 104-206, 207-308).